Measured values: patent US7157481B2 (priority 1997, dated 2007)

These molecules were tested on Pyricularia oryzae (assay: Pyricularia Test (Rice)/Induction of resistance). Conditions: young rice plants sprayed at 750 g/ha; inoculated 5 days after treatment; evaluation 4 days after inoculation; 100% = no infection.

Row | SMILES | Efficacy in %
1 | CCC(C)c1ccc(NC(=O)c2snc(Cl)c2Cl)cc1 (stereo not shown) [Example 16] | 90%
2 | CCN(CC)Cc1ccc(CNC(=O)c2snc(Cl)c2Cl)cc1 [Example 14] | 100%
3 | Cc1ccc(NC(=O)c2snc(Cl)c2Cl)c(C)c1 | 90%
4 | CC(C)(C)CSCc1ccc(NC(=O)c2snc(Cl)c2Cl)cc1 | 90%
5 | N#Cc1ccccc1NC(=O)c1snc(Cl)c1Cl | 90%
6 | CCC(CC)c1ccc(NC(=O)c2snc(Cl)c2Cl)cc1 | 90%
7 | O=C(NCCOS(=O)OCCNC(=O)c1snc(Cl)c1Cl)c1snc(Cl)c1Cl | 90%
